Compound potency records, mixed from different reports. Data source: NIAID ChemDB in PubChem.

All rows: tests on isolated targets; agent: HIV-1; protein: Protease

Blank or dashed fields: not listed here. Rows are shuffled and stem from different studies. ICn: concentration for n% inhibition.

smiles,strain or isolate,read-out,conditions,read by,result
CC(C)(C)OC(=O)N[C@@H](Cc1ccccc1)[C@H](O)C(=O)N1CCC[C@H]1C(=O)NCC1CCCCC1,-,IC50,-,-,~1000 µM
CC(C)(C)OC(=O)N[C@@H](Cc1ccccc1)C(=O)NC(CO)NC(=O)[C@@H](Cc1ccccc1)NC(=O)OC(C)(C)C,-,IC50,-,substrate cleavage,>10 µM
O=C(N[C@@H](Cc1ccccc1)C(=O)NCC[C@@H](CO)NC(=O)[C@H](Cc1ccccc1)NC(=O)OCC1c2ccccc2-c2ccccc21)OCC1c2ccccc2-c2ccccc21,-,IC50,-,HPLC,0.16 µM
CCC(C)[C@H](NC(=O)[C@H](Cc1ccccc1)[C@@H](O)C[C@H](Cc1ccccc1)NC(=O)[C@H](Cc1cnc[nH]1)NC(=O)COc1cccc2ccccc12)C(=O)NCc1ccccn1,-,IC50,-,HPLC,0.8 µM
C=C1C[C@]2(C)C(C/C(=C\O)C3[C@@H]([C@@]4(C)CCCC(C)(C)O4)CC[C@]32C)[C@@]2(C)C/C(=C(/O)C(=O)O)C(C)(C)C12,-,IC50,-,HPLC,10 µM
C[C@H](C(=O)NC(C)(C)C)n1nnnc1[C@H](O)[C@H](Cc1ccccc1)NC(=O)[C@H](CC(N)=O)NC(=O)c1ccc2ccccc2n1,-,IC50,-,-,51 ± 3 µM
CC(=O)N[C@@H](Cc1c[nH]c2ccccc12)C(=O)N[C@H](C(=O)N[C@@H](CC(C)C)[C@@H](O)CC(=O)N[C@@H](CC(C)C)C(=O)N[C@@H](Cc1ccccc1)C(N)=O)C(C)C,-,IC50,-,-,0.013 µM
CC(C)c1nc(COC(=O)N[C@H](C(=O)N[C@@H](Cc2ccccc2)[C@H](O)CN2CCN(Cc3ccncc3)C[C@H]2C(=O)NC(C)(C)C)C(C)C)cs1,-,IC50,-,substrate cleavage,<0.0005 µM
CC(C)[C@H](NC(=O)OCc1ccccc1)C(=O)N[C@@H](Cc1ccccc1)C(O)[C@H](Cc1ccccc1)NC(=O)[C@@H](NC(=O)OCc1ccccc1)C(C)C,-,Ki,-,HPLC,0.23 µM
CC(=O)N[C@@H](Cc1cccc2ccccc12)C(=O)N[C@@H](Cc1cnc[nH]1)C(=O)N[C@@H](CC(C)C)[C@@H](O)CC(=O)N[C@@H](CC(C)C)C(=O)N[C@@H](Cc1ccccc1)C(N)=O,-,IC50,-,-,7.2 µM
CC(C)c1nc(COC(=O)N[C@H](C(=O)N[C@@H](Cc2ccccc2)[C@H](O)CN2CCN(Cc3cncs3)C[C@H]2C(=O)NC(C)(C)C)C(C)C)cs1,-,IC50,-,substrate cleavage,<0.0005 µM
O=C(N[C@@H](Cc1ccccc1)C(=O)NC(CO)NC(=O)[C@@H](Cc1ccccc1)NC(=O)OCc1ccccc1)OCc1ccccc1,-,IC50,-,substrate cleavage,>10 µM
C[C@@H](C(=O)NC(C)(C)C)n1nnnc1[C@H](O)[C@H](Cc1ccccc1)NC(=O)[C@H](CC(N)=O)NC(=O)c1ccc2ccccc2n1,-,IC50,-,-,60 ± 10 µM
CC(C)(C)NC(=O)[C@@H]1C[C@@H](OCc2ccccc2)CN1C(=O)[C@@H](O)[C@H](Cc1ccccc1)NC(=O)[C@H](CC(N)=O)NC(=O)OCc1ccccc1,-,IC50,-,-,<5 µM
Cc1cc(C)cc(C[C@@H]2[C@H](O)[C@@H](O)[C@@H](Cc3ccccc3)N(Cc3ccc4[nH]nc(N)c4c3)C(=O)N2Cc2ccccc2)c1,-,Ki,-,HPLC,0.0002 µM
CC(C)CN(C[C@@H](O)[C@H](Cc1ccccc1)NC(=O)[C@@H](NC(=O)N(C)Cc1csc(C(C)C)n1)C(C)C)C(=O)NC(C)(C)C,-,IC50,-,substrate cleavage,<1 µM
COc1ccc(S(=O)(=O)N(CC(C)C)C[C@@H](O)CCN(CCC2CCCC2)C(=O)O[C@H]2CCOC2)cc1,IIIB,Ki,pH 4.7,HPLC,>3 µM
CS(=O)(=O)C[C@H](NC(=O)COc1cccc2ccccc12)C(=O)N[C@@H](Cc1ccccc1)[C@H](O)C(=O)N1CSC[C@H]1C(=O)NCCCC(N)=O,-,IC50,-,-,>0.05 µM
CC1(C)CCC[C@](C)([C@H]2CC[C@]3(C)C2[C@H](O)CC2[C@@]4(C)CC[C@H](O)C(C)(C)C4/C(=C/O)C[C@]23C)O1,-,IC50,-,HPLC,>209.9 µM
CC(=O)N[C@@H](Cc1cccc2ccccc12)C(=O)N[C@@H](CC(N)=O)C(=O)N[C@@H](CC(C)C)[C@@H](O)CC(=O)N[C@@H](CC(C)C)C(=O)N[C@@H](Cc1ccccc1)C(N)=O,-,IC50,-,-,4.6 µM
CC(C)[C@H](NC(=O)OCc1ccccc1)C(=O)N[C@@H](Cc1ccccc1)C(O)[C@H](Cc1ccccc1)NC(=O)[C@@H](NC(=O)OCc1ccccc1)C(C)C,-,IC50,-,-,0.025 µM
NC(=O)c1cc2c([nH]c3ccccc32)c(-c2ccc(CO)o2)n1,-,IC50,-,fluorescence,35.74 µM
O=C1OCC(O)C(C2OC(=O)c3cc(O)c(O)c(O)c3-c3c(O)c(O)c(O)c4c3C(=O)OC2C4c2c(O)cc(O)c3c2OC(c2ccc(O)c(O)c2)C(O)C3)OC(=O)c2cc(O)c(O)c(O)c2-c2c1cc(O)c(O)c2O,-,IC50,-,HPLC,77 µM
COC(=O)[C@H](Cc1ccccc1)NC(=O)[C@H](CCC(=O)OCC1CCCCC1)NC(=O)C[C@H](O)C(CC(C)C)NC(=O)[C@@H](NC(=O)[C@H](Cc1c[nH]c2ccccc12)NC(=O)CCCCC(=O)Nc1ccn([C@H]2CS[C@@H](CO)O2)c(=O)n1)C(C)C,-,IC50,-,HPLC,0.01 µM
O=C(N[C@@H](Cc1ccccc1)C(=O)NC(CCO)NC(=O)[C@@H](Cc1ccccc1)NC(=O)OCC1c2ccccc2-c2ccccc21)OCC1c2ccccc2-c2ccccc21,-,IC50,-,substrate cleavage,>10 µM
COC(=O)[C@H](Cc1ccccc1)NC(=O)[C@H](CCC(=O)OCC1CCCCC1)NC(=O)C[C@H](O)C(CC(C)C)NC(=O)[C@@H](NC(=O)[C@@H](N)Cc1c[nH]c2ccccc12)C(C)C,-,IC50,-,HPLC,0.05 µM
C=C1C[C@]2(C)C(CC(=O)C3[C@@H]([C@@]4(C)CCCC(C)(C)O4)CC[C@]32C)[C@@]2(C)CCC(=O)C(C)(C)C12,-,IC50,-,HPLC,>218 µM
O=C(N[C@@H](Cc1ccccc1)C(=O)NCC[C@@H](CO)NC(=O)[C@H](Cc1ccccc1)NC(=O)c1cc2ccccc2[nH]1)c1cc2ccccc2[nH]1,-,IC50,-,HPLC,2.9 µM
COC(=O)CN(C)C(=O)CN(C)C(=O)CN(C(=O)CN(Cc1ccccc1)C(=O)C[C@@]1(O)C2C3C4C2[C@@](O)(CC(=O)N(CC(=O)N(CC(=O)N(C)CC(=O)N(C)CC(=O)OC)C(C)C)Cc2ccccc2)C2C1[C@H]3C[C@H]42)C(C)C,-,IC50,-,substrate cleavage,6.5 µM
Cc1nc(COC(=O)N[C@H](C(=O)N[C@@H](Cc2ccccc2)[C@H](O)CN2CCN(Cc3ccc4c(c3)OCO4)C[C@H]2C(=O)NC(C)(C)C)C(C)C)cs1,-,IC50,-,substrate cleavage,~0.0005 µM
CC(=O)N1CCC[C@H]1C(=O)N[C@H](C(=O)N[C@@H](CC(C)C)[C@@H](O)CC(=O)N[C@@H](CC(C)C)C(=O)N[C@@H](Cc1ccccc1)C(N)=O)C(C)C,-,IC50,-,-,1.062 µM
CC(C)c1nc(COC(=O)N[C@H](C(=O)N[C@@H](Cc2ccccc2)[C@H](O)CN2CCN(Cc3ccc(O)cc3)C[C@H]2C(=O)NC(C)(C)C)C(C)C)cs1,-,IC50,-,substrate cleavage,<0.0005 µM
CC(C)CC(NC(=O)[C@H](C)NC(=O)C[C@H](O)C(CC(C)C)NC(=O)[C@@H](NC(=O)[C@H](Cc1ccc(O)cc1)NC(=O)OCc1ccccc1)C(C)C)[C@@H](O)CC(=O)NCCCCNc1ccn([C@H]2CS[C@@H](CO[Si](c3ccccc3)(c3ccccc3)C(C)(C)C)O2)c(=O)n1,-,IC50,-,HPLC,1 µM
O=C(N[C@@H](Cc1ccccc1)C(=O)NC[C@@H](CO)NC(=O)[C@H](Cc1ccccc1)NC(=O)OCc1ccccc1)OCc1ccccc1,-,IC50,-,HPLC,5.7 µM
CC(C)[C@H](NC(=O)[C@@H]1CCCN1C(=O)[C@H](O)[C@H](Cc1ccccc1)NC(=O)OC(C)(C)C)C(=O)NCC1CCCCC1,-,IC50,-,-,~1000 µM
CC(C)c1nc(COC(=O)N[C@H](C(=O)N[C@@H](Cc2ccccc2)[C@H](O)CN2CCN(Cc3ccccc3)C[C@H]2C(=O)NC(C)(C)C)C(C)C)cs1,-,IC50,-,substrate cleavage,<0.0005 µM
COC(=O)[C@H](Cc1ccccc1)NC(=O)[C@H](CCC(=O)Nc1ccn([C@H]2CS[C@@H](CO)O2)c(=O)n1)NC(=O)C[C@H](O)C(CC(C)C)NC(=O)[C@@H](NC(=O)[C@H](Cc1c[nH]c2ccccc12)NC(C)=O)C(C)C,-,IC50,-,HPLC,0.02 µM
CC(C)c1nc(COC(=O)N[C@H](C(=O)N[C@@H](Cc2ccccc2)[C@H](O)CN2CCN(Cc3ccc(F)cc3)C[C@H]2C(=O)NC(C)(C)C)C(C)C)cs1,-,IC50,-,substrate cleavage,<0.0005 µM
CC(=O)N[C@@H](Cc1ccccc1)C(=O)N[C@@H](CC(C)C)C(=O)N[C@@H](CC(C)C)[C@@H](O)CC(=O)N[C@@H](CC(C)C)C(=O)N[C@@H](Cc1ccccc1)C(N)=O,-,IC50,-,-,~10 µM
COC(=O)[C@H](NC(=O)[C@H](NC(=O)[C@H](Cc1ccccc1)C[C@H](O)[C@H](Cc1ccccc1)NC(=O)[C@H](C)NC(=O)[C@H](C)N)C(C)C)C(C)C,-,IC50,-,HPLC,10 µM
CC(C)[C@H](NC(=O)[C@@H]1CCCN1C(=O)[C@@H](O)[C@H](Cc1ccccc1)NC(=O)OC(C)(C)C)C(=O)OC1CCCCC1,-,IC50,-,-,>1000 µM
CC(=O)N[C@@H](Cc1cccc2ccccc12)C(=O)N[C@@H](CCC(N)=O)C(=O)N[C@@H](CC(C)C)[C@@H](O)CC(=O)N[C@@H](CC(C)C)C(=O)N[C@@H](Cc1ccccc1)C(N)=O,-,IC50,-,-,3.3 µM

The last 6 rows once more:

smiles	strain or isolate	read-out	conditions	read by	result
COC(=O)[C@H](Cc1ccccc1)NC(=O)[C@H](CCC(=O)Nc1ccn([C@H]2CS[C@@H](CO)O2)c(=O)n1)NC(=O)C[C@H](O)C(CC(C)C)NC(=O)[C@@H](NC(=O)[C@H](Cc1c[nH]c2ccccc12)NC(C)=O)C(C)C	-	IC50	-	HPLC	0.02 µM
CC(C)c1nc(COC(=O)N[C@H](C(=O)N[C@@H](Cc2ccccc2)[C@H](O)CN2CCN(Cc3ccc(F)cc3)C[C@H]2C(=O)NC(C)(C)C)C(C)C)cs1	-	IC50	-	substrate cleavage	<0.0005 µM
CC(=O)N[C@@H](Cc1ccccc1)C(=O)N[C@@H](CC(C)C)C(=O)N[C@@H](CC(C)C)[C@@H](O)CC(=O)N[C@@H](CC(C)C)C(=O)N[C@@H](Cc1ccccc1)C(N)=O	-	IC50	-	-	~10 µM
COC(=O)[C@H](NC(=O)[C@H](NC(=O)[C@H](Cc1ccccc1)C[C@H](O)[C@H](Cc1ccccc1)NC(=O)[C@H](C)NC(=O)[C@H](C)N)C(C)C)C(C)C	-	IC50	-	HPLC	10 µM
CC(C)[C@H](NC(=O)[C@@H]1CCCN1C(=O)[C@@H](O)[C@H](Cc1ccccc1)NC(=O)OC(C)(C)C)C(=O)OC1CCCCC1	-	IC50	-	-	>1000 µM
CC(=O)N[C@@H](Cc1cccc2ccccc12)C(=O)N[C@@H](CCC(N)=O)C(=O)N[C@@H](CC(C)C)[C@@H](O)CC(=O)N[C@@H](CC(C)C)C(=O)N[C@@H](Cc1ccccc1)C(N)=O	-	IC50	-	-	3.3 µM